Pooled drug test results. Numbers come from NIAID ChemDB, via PubChem.

Shared fields: cytotoxicity tests; cells: MT-4; read-out: CC50

Neighbouring rows are from separate reports.

compound | value
CNC(=O)c1nc([C@]2(C)CSC([C@]3(C)CSC([C@]4(C)CSC(/C=C/c5ccccc5)=N4)=N3)=N2)oc1C | 46.5 µM
CCCCCCCCCCCCOC(=O)c1cc(O)c(O)c(O)c1 | 1.3 µg/mL
CCC(C)C(NC(=O)C(N)CO)C(=O)NC(C)C(=O)N[C@@]12NC(=O)[C@@]3(O)C4C5C(C41)[C@@H]1C[C@H]5C3C12 | 10 µM
CC(C)CCC[C@@H](C)[C@H]1CC[C@H]2[C@@H]3[C@@H](O)C=C4C[C@@H](O)CC[C@]4(C)[C@H]3CC[C@]12C | 23 µM
Cc1ccc(NC(=S)OCC(C)N2C(=O)c3ccc(C)cc3C2=O)cc1 | >100 µM
O=C(OC1OC2COC(=O)c3cc(Oc4c(C(=O)OC5OC6COC(=O)c7cc(O)c(O)c(O)c7-c7c(cc(O)c(O)c7O)C(=O)OC6C(OC(=O)c6cc(O)c(O)c(O)c6)C5OC(=O)c5cc(O)c(O)c(O)c5)cc(O)c(O)c4O)c(O)c(O)c3-c3c(cc(O)c(O)c3O)C(=O)OC2C(OC(=O)c2cc(O)c(O)c(O)c2)C1OC(=O)c1cc(O)c(O)c(O)c1)c1cc(O)c(O)c(O)c1 | 24.7 µg/mL
CC(C)(C)OC(=O)N(CCCCCC(=O)Nc1ccn([C@H]2CS[C@@H](COC(=O)CCCCCN(CCCCCN(Cc3ccccc3)C(=O)OC(C)(C)C)C(=O)OC(C)(C)C)O2)c(=O)n1)CCCCCN(Cc1ccccc1)C(=O)OC(C)(C)C | 10 µM
Cc1ccc(/C=C/C(=O)C2CCC3C4CC=C5C[C@@H](O)CC[C@]5(C)C4CC[C@]23C)cc1 | 51.7 µM
Cc1cc(C)cc(NS(=O)(=O)c2ccc(NC(=O)/C=C/c3ccc(O)c(O)c3)cc2)c1 | 12 µM
CSCO[C@H]1C[C@H](n2cc(C)c(=O)[nH]c2=O)O[C@@H]1CO | >500 µM
O=CC(OC(=O)c1cc(O)c(O)c(O)c1Oc1cc2c(c(O)c1O)-c1c(cc(O)c(O)c1O)C(=O)OC1C(COC2=O)OC(OC(=O)c2cc(O)c(O)c(O)c2)C(OC(=O)c2cc(O)c(O)c(O)c2)C1OC(=O)c1cc(O)c(O)c(O)c1)C(OC(=O)c1cc(O)c(O)c(O)c1)C1OC(=O)c2cc(c(O)c(O)c2O)-c2c(cc(O)c(O)c2O)C(=O)OCC1O | 42 µg/mL
CC(C)CN(C[C@@H](O)[C@H](Cc1ccccc1)NC(=O)O[C@H]1CCOC1)S(=O)(=O)c1ccc2nc(N)[nH]c2c1 | 89.1 µM
Cc1ccc(C(=O)Nc2cc(S(=O)(=O)O)ccc2S(=O)(=O)O)cc1NC(=O)c1cccc(NC(=O)Nc2cccc(C(=O)Nc3cc(C(=O)Nc4cc(S(=O)(=O)O)ccc4S(=O)(=O)O)ccc3C)c2)c1 | >500 µg/mL
CCc1nc([N+](=O)[O-])c(N2CCN(C(=O)OCn3c4ccccc4c4ccccc43)CC2)n1Cc1ccccc1 | 17.95 µg/mL
C[C@H](Cn1cnc2c(=O)[nH]c(N)nc21)OCP(=O)(O)O | >300 µM
N#Cc1cc(Cl)cc(Oc2cc(OCc3[nH]nc4cccnc34)ccc2Cl)c1 | >8.3 µM
Nc1nc(=O)n([C@@H]2CC[C@H](CO)O2)cc1F | 20 µM
COc1cccc2c1nc(-c1ccccc1F)n2Cc1cccc(Cl)c1 | 14.2 µg/mL
O=C(Nc1cc(C(=O)Nc2ccc(S(=O)(=O)O)c3cc(S(=O)(=O)O)cc(S(=O)(=O)O)c23)ccc1F)Nc1cc(C(=O)Nc2ccc(S(=O)(=O)O)c3cc(S(=O)(=O)O)cc(S(=O)(=O)O)c23)ccc1F | >500 µg/mL
CC(=O)Oc1ccc(/C=C/C(=O)Nc2ccc(S(=O)(=O)Nc3ccc(Cl)c(Cl)c3)cc2)cc1OC(C)=O | 20 µM
Cc1cccc(C)c1OCC(=O)N[C@@H](Cc1ccccc1)[C@H](O)CN(CC(C)C)S(=O)(=O)c1ccc2ncn(CC(C)C)c2c1 | >100 µM
Cc1cnc(CNCc2ccc(CN3CCCNCCNCCCNCC3)cc2)cn1 | >250 µg/mL
O=c1[nH]cnc2c1ncn2[C@H]1C[C@H](F)[C@@H](CO)O1 | 818 µM
O=C(CCCCCNCCCCNCc1ccccc1)Nc1ccn([C@@H]2CS[C@@H](CO)O2)c(=O)n1 | >50 µM
CCCc1c(OC#CC2CC2)c2cc(Cl)ccc2[nH]c1=O | 21.7 µM
Nc1ncnc2c1ncn2C[C@@H](CF)OCP(=O)(O)O | >300 µM
Nc1ccn([C@H]2CS[C@@H](COC(=O)CCCCCNCCCCNCc3ccccc3)O2)c(=O)n1 | >50 µM
CCCc1c(SCC2CCC2)c2cc(F)ccc2[nH]c1=O | 29.7 µM
CC(=O)c1ccccc1NC(C(N)=O)c1c(Cl)cccc1Cl | 130 µM
Cc1cn([C@H]2C[C@H](N=[N+]=[N-])[C@@H](CO)O2)c(=O)[nH]c1=O | >25 µM
CC(C)(C)OC(=O)N(CCCCCCN(Cc1ccccc1)C(=O)OC(C)(C)C)CCCCCC(=O)Nc1ccn([C@H]2CS[C@@H](CO)O2)c(=O)n1 | 10 µM
Cc1cnc(Nc2ccc(C#N)cc2)nc1SC1CCCCC1 | 33.38 µM
COc1cccc2c1nc(-c1ccccc1F)n2Cc1cc(F)cc(F)c1 | >25 µg/mL
N#Cc1ccc(Nc2nccc(OC3CCCC3)n2)cc1 | >340 µM
O=C(OC1OC2COC(=O)c3cc(O)c(O)c(O)c3-c3c(cc(O)c(O)c3O)C(=O)OC2C(OC(=O)c2cc(O)c(O)c(O)c2)C1OC(=O)c1cc(O)c(O)c(O)c1)c1cc(O)c(O)c(Oc2c(C(=O)OC3OC4COC(=O)c5cc(O)c(O)c(O)c5-c5c(cc(O)c(O)c5O)C(=O)OC4C4OC(=O)c5cc(O)c(O)c(O)c5-c5c(cc(O)c(O)c5O)C(=O)OC34)cc(O)c(O)c2O)c1 | 19.8 µg/mL
CCc1nc([N+](=O)[O-])c(N2CCN(C(=O)CCC(=O)OC)CC2)n1Cc1ccccc1 | 44.67 µg/mL
CCCc1c(OCC2CCC2)c2cc(F)ccc2[nH]c1=O | 47.2 µM
Nc1nc2c(ncn2C[C@@H](CF)OCP(=O)(O)O)c(=O)[nH]1 | 103 µM
Cc1ccc(NC(=S)OCCN2C(=O)c3ccc(C(C)(C)C)cc3C2=O)cc1 | >100 µM
c1cc(CNCc2ccc(CN3CCCNCCNCCCNCC3)cc2)ccn1 | >250 µg/mL
CCc1nc([N+](=O)[O-])c(N2CCN(C(=O)CSCc3ccc(Cl)cc3)CC2)n1Cc1ccccc1 | 7.35 µg/mL
O=C(OC1OC2COC(=O)c3cc(O)c(O)c(O)c3-c3c(cc(O)c(O)c3O)C(=O)OC2C(OC(=O)c2cc(O)c(O)c(O)c2)C1O)c1cc(O)c(O)c(O)c1 | 23.2 µg/mL
C[C@@H](Cn1cnc2c(N)nc(N)nc21)OCP(=O)(O)O | >300 µM
O=S(=O)(O)c1cc(S(=O)(=O)O)c2c(Nc3ccnc4cc(Cl)ccc34)ccc(S(=O)(=O)O)c2c1 | >500 µg/mL
CC(C)(C)c1ccc2c(c1)C(=O)N(CCOC(=S)Nc1ccc(Cl)cc1)C2=O | >100 µM
O=C(/C=C/c1ccc(O)c(O)c1)Nc1ccc(S(=O)(=O)Nc2ccc(F)c(Cl)c2)cc1 | 14 µM
Cc1ccc2c(c1)C(=O)N(C(C)COC(=S)Nc1ccc(Cl)cc1)C2=O | >100 µM
CCC(C)C#COc1c(C(C)C)c(=O)[nH]c2ccc(F)cc12 | 21.3 µM
Nc1ncc2ncn(C[C@H](CF)OCP(=O)(O)O)c2n1 | >300 µM
O=C(CCCCCNCc1ccccc1)Nc1ccn([C@H]2CS[C@@H](COC(=O)CCCCCNCc3ccccc3)O2)c(=O)n1 | >50 µM
N#Cc1ccc(Nc2nccc(NC3CCCC3)n2)cc1 | 9.13 µM
COc1cccc2c1nc(-c1ccccc1F)n2Cc1ccc(C(F)(F)F)cc1 | >5 µg/mL
CC(=O)Oc1ccc(/C=C/C(=O)Nc2ccc(S(=O)(=O)Nc3cccc(Cl)c3F)cc2)cc1OC(C)=O | >25 µM
COC(=O)Nc1nc2ccc(S(=O)(=O)N(CC(C)C)C[C@@H](O)[C@H](Cc3ccccc3)NC(=O)c3ccc(O)cc3C)cc2[nH]1 | 50.1 µM
COc1cccc2c1nc(-c1ccccc1F)n2Cc1ccncc1 | 65.8 µg/mL
CC(C)c1ccc(C(=O)Nc2ccc(S(=O)(=O)[O-])c3cc(S(=O)(=O)[O-])cc(S(=O)(=O)[O-])c23)cc1NC(=O)Nc1cc(C(=O)Nc2ccc(S(=O)(=O)[O-])c3cc(S(=O)(=O)[O-])cc(S(=O)(=O)[O-])c23)ccc1C(C)C.[Na+].[Na+].[Na+].[Na+].[Na+].[Na+] | >500 µg/mL
Cc1cccc(C)c1OCC(=O)N[C@@H](Cc1ccccc1)[C@H](O)CN(CC(C)C)S(=O)(=O)c1ccc2ncn(CCc3ccccc3)c2c1 | >100 µM
Cc1cc(C)c(C(=O)Nc2ccc(S(=O)(=O)O)c3cc(S(=O)(=O)O)cc(S(=O)(=O)O)c23)c(C)c1NC(=O)c1cccc(NC(=O)Nc2cccc(C(=O)Nc3c(C)cc(C)c(C(=O)Nc4ccc(S(=O)(=O)O)c5cc(S(=O)(=O)O)cc(S(=O)(=O)O)c45)c3C)c2)c1 | >500 µg/mL
C[C@]12CCC3C(CC=C4CC(O)CC[C@@]43C)C1CCC2C1=NN(C(N)=S)C(c2ccc(C(F)(F)F)cc2)C1 | 7.92 µM
N#Cc1ccc(Nc2nccc(OC3CCCCC3)n2)cc1 | 322 µM
CC(=O)c1ccc(C)cc1NC(C(N)=O)c1c(Cl)cccc1Cl | 710 µM
CCC(C)C(NC(=O)C(N)CO)C(=O)NC(C)C(=O)NC(CCC(=O)O)C(=O)NN[C@@]12NC(=O)[C@@]3(O)C4C5C(C41)[C@@H]1C[C@H]5C3C12 | 0.078 µM
NC(=O)OCc1ncc(Sc2cc(Cl)cc(Cl)c2)n1Cc1ccncc1 | 11 µg/mL
CC(=O)N1N=C(C2CCC3C4CC=C5C[C@@H](O)CC[C@]5(C)C4CC[C@]23C)CC1c1ccc(Br)cc1 | >0.29 µM
C=C(C)CC[C@H]1CN(c2ccn(N3CCOCC3)c2)C(=O)O1 | >100 µM
O=C(OCC1OC(OC(=O)c2cc(O)c(O)c(O)c2)C2OC(=O)c3cc(O)c(O)c(O)c3-c3c(cc(O)c(O)c3O)C(=O)OC2C1OC(=O)c1cc(O)c(O)c(O)c1Oc1cc2c(c(O)c1O)-c1c(cc(O)c(O)c1O)C(=O)OC1C(COC2=O)OC(OC(=O)c2cc(O)c(O)c(O)c2)C2OC(=O)c3cc(O)c(O)c(O)c3-c3c(cc(O)c(O)c3O)C(=O)OC12)c1cc(O)c(O)c(O)c1 | 34.8 µg/mL
CC(C)CN(C[C@@H](O)[C@H](Cc1ccccc1)NC(=O)O[C@H]1CO[C@H]2OCC[C@H]21)S(=O)(=O)c1ccc2ncn(CCO)c2c1 | >100 µM
Cc1cn([C@H]2C[C@H](F)[C@@H](CN)O2)c(=O)[nH]c1=O | >500 µM
Cc1cccc(C)c1OCC(=O)N[C@@H](Cc1ccccc1)[C@H](O)CN(CC(C)C)S(=O)(=O)c1ccc2nc(N)n(C)c2c1 | >100 µM
CCc1nc([N+](=O)[O-])c(N2CCN(C(=O)CCl)CC2)n1Cc1ccccc1 | 0.45 µg/mL
CC(C)(C)OC(=O)N(CCCCCC(=O)OC[C@H]1O[C@@H](n2ccc(N)nc2=O)CS1)CCCCCN(Cc1ccccc1)C(=O)OC(C)(C)C | 50 µM
Cc1ccc(C(=O)Nc2cccc(C(=O)Nc3ccc(S(=O)(=O)O)c4cc(S(=O)(=O)O)cc(S(=O)(=O)O)c34)c2)cc1NC(=O)Nc1cc(C(=O)Nc2cccc(C(=O)Nc3ccc(S(=O)(=O)O)c4cc(S(=O)(=O)O)cc(S(=O)(=O)O)c34)c2)ccc1C | >500 µg/mL
CC(=O)c1ccccc1N[C@H](C(N)=O)c1c(Cl)cccc1Cl | 52 µM
Nc1ccn([C@@H]2O[C@H](CO)C=C2Cl)c(=O)n1 | >500 µM
O=C(Nc1cc(C(=O)Nc2ccc(S(=O)(=O)O)cc2)cc(C(=O)Nc2ccc(S(=O)(=O)O)cc2)c1)Nc1cc(C(=O)Nc2ccc(S(=O)(=O)O)cc2)cc(C(=O)Nc2ccc(S(=O)(=O)O)cc2)c1 | >500 µg/mL
C[C@H](Cn1cnc2c(N)nc(N)nc21)OCP(=O)(O)O | >300 µM
NC(=O)[C@H](Nc1ccccc1[N+](=O)[O-])c1c(Cl)cccc1Cl | 82 µM
CCc1ccc(C(=O)Nc2ccc(S(=O)(=O)O)c3cc(S(=O)(=O)O)cc(S(=O)(=O)O)c23)cc1NC(=O)c1cccc(NC(=O)Nc2cccc(C(=O)Nc3cc(C(=O)Nc4ccc(S(=O)(=O)O)c5cc(S(=O)(=O)O)cc(S(=O)(=O)O)c45)ccc3CC)c2)c1 | >50 µg/mL
Nc1ncnc2c1nc(Br)n2[C@H]1CC[C@@H](CO)O1 | >500 µM

Repeating the final 7 entries:

compound	value
CC(=O)c1ccccc1N[C@H](C(N)=O)c1c(Cl)cccc1Cl	52 µM
Nc1ccn([C@@H]2O[C@H](CO)C=C2Cl)c(=O)n1	>500 µM
O=C(Nc1cc(C(=O)Nc2ccc(S(=O)(=O)O)cc2)cc(C(=O)Nc2ccc(S(=O)(=O)O)cc2)c1)Nc1cc(C(=O)Nc2ccc(S(=O)(=O)O)cc2)cc(C(=O)Nc2ccc(S(=O)(=O)O)cc2)c1	>500 µg/mL
C[C@H](Cn1cnc2c(N)nc(N)nc21)OCP(=O)(O)O	>300 µM
NC(=O)[C@H](Nc1ccccc1[N+](=O)[O-])c1c(Cl)cccc1Cl	82 µM
CCc1ccc(C(=O)Nc2ccc(S(=O)(=O)O)c3cc(S(=O)(=O)O)cc(S(=O)(=O)O)c23)cc1NC(=O)c1cccc(NC(=O)Nc2cccc(C(=O)Nc3cc(C(=O)Nc4ccc(S(=O)(=O)O)c5cc(S(=O)(=O)O)cc(S(=O)(=O)O)c45)ccc3CC)c2)c1	>50 µg/mL
Nc1ncnc2c1nc(Br)n2[C@H]1CC[C@@H](CO)O1	>500 µM

CCn is the concentration with n% toxicity to the cells.